Values from PubChem BioAssay AID624099 (ICCB-Longwood, 2012)
Test: 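Host factors E2 relies on to silence an HPV18 LCR reporter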 (primary screen). System: human C33A cervical carcinoma cells (HPV-negative) stably expressing BPV1 E2 and an HPV18 LCR luciferase reporter. Reagents: siRNA pool against human genes, 40 nM. Duration: 72 h. Measurement: 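Per-well luciferase luminescence, z-scored on each plate against the plate mean and SD with control wells left out, then averaged across three replicate plates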. Reading the numbers: mean z-score and z-score: higher = stronger reporter signal, weaker E2 silencing. Rule for the call: 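Mean z ≥ 2 together with z ≥ 2 in two or more of the three replicates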.
The deposit covers about 21,000 reagents; this is a random part of them. 497 of them (2.4%) were called active. 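Higher z means weaker E2 silencing; only reporter increases were scored, and knock-downs that hurt cell survival may mask genuine repressor factors.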 No sequences are given here.

What did the screen give for FBXO16 (F-box protein 16)?
mean z-score: 0.33; z-score, replicate A: 0.6; z-score, replicate B: -0.39; z-score, replicate C: 0.79; outcome: inactive

With PIK3CA, how do the results read?
mean z-score: 0.17; z-score, replicate A: -0.19; z-score, replicate B: 0.51; z-score, replicate C: 0.19; outcome: inactive

For MAP4K5 (mitogen-activated protein kinase kinase kinase kinase 5), how do the results read?
mean z-score: 0.8; z-score, replicate A: 0.93; z-score, replicate B: 0.47; z-score, replicate C: 0.99; outcome: inactive

With SLC31A1, how do the results read?
mean z-score: 0.56; z-score, replicate A: 0.21; z-score, replicate B: 0.87; z-score, replicate C: 0.59; outcome: inactive

How did the screen score CTR9 (CTR9 component of Paf1/RNA polymerase II complex)?
mean z-score: -0.91; z-score, replicate A: -0.98; z-score, replicate B: -0.89; z-score, replicate C: -0.84; outcome: inactive

With BST2 (bone marrow stromal cell antigen 2), what does the deposit list?
mean z-score: 0.51; z-score, replicate A: 0.41; z-score, replicate B: 0.52; z-score, replicate C: 0.61; outcome: inactive

For RHOH (ras homolog family member H), how do the results read?
mean z-score: 0.25; z-score, replicate A: 0.11; z-score, replicate B: 0.49; z-score, replicate C: 0.16; outcome: inactive

How did the screen score TRAPPC12 (trafficking protein particle complex subunit 12)?
mean z-score: 0.66; z-score, replicate A: 0.88; z-score, replicate B: 0.37; z-score, replicate C: 0.73; outcome: inactive

Which result is listed for SH3BP1 (SH3 domain binding protein 1)?
mean z-score: 1.31; z-score, replicate A: 1.03; z-score, replicate B: 1.2; z-score, replicate C: 1.71; outcome: inactive

With LOC387932 (retired record), what was measured?
mean z-score: 0.46; z-score, replicate A: 0.71; z-score, replicate B: 0.55; z-score, replicate C: 0.12; outcome: inactive

With DPPA5P4 (developmental pluripotency associated 5 pseudogene 4), what does the deposit list?
mean z-score: 0.09; z-score, replicate A: -0.03; z-score, replicate B: 0.15; z-score, replicate C: 0.15; outcome: inactive

For MIPOL1 (mirror-image polydactyly 1), how do the results read?
mean z-score: -1.86; z-score, replicate A: -1.7; z-score, replicate B: -1.66; z-score, replicate C: -2.22; outcome: inactive
